# Percent effect of library compounds

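Whole-cell growth test on Mycobacterium tuberculosis, read after 4 days in a medium based on cholesterol and the lipid DPPC; the read-out is not stated. Concentration: 500 µM. Direction is inferred from retests: higher values go with more growth inhibition. Of about 18,000 compounds tested this way, about 900 (5%) reached 50% or more in at least one test.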

Each number is a percent effect as filed.
The record does not define 0% and 100%; most values in the screen are far below 50% and negative numbers occur (in some assays of this library far below -100).
Many other results are left out here, so strong results are more common than in the screen.

With Cc1ccc(C#N)cc1S(=O)(=O)N1CCC[C@@H](N)C1 the screen gave -9.505%.
With Cc1ncn(CC(=O)NCCSc2nnnn2C)c1C the screen gave -0.7999%.
With COc1ccc(-c2nc(CS(C)(=O)=O)cs2)cc1 the screen gave 4.383%.
With COc1ccc(-c2ccc(CNS(N)(=O)=O)s2)cc1 the screen gave 2.073%.
With CCCC(=O)N(C)CCC(N)C(C)C (stereo unspecified) the screen gave 1.35%.
With COC(=O)c1ccc(CSc2nnc(N)[nH]2)cc1 the screen gave 38.03%.
With O=C(CNc1ncccn1)NCCc1ccccc1 the screen gave -3.208%.
With CCn1ccc(CN2CCOCS2(=O)=O)n1 the screen gave -13.61%.
With CCCNC(=O)CNc1cc(F)c(OC)c(F)c1 the screen gave 61.51%.
With O=C(COCC(F)(F)F)NCCn1ccnc1 the screen gave -2.862%.
With Cc1ccc(F)c(CN2CC[C@H](N)C2)c1 the screen gave 63.42%.
With CCNC(=O)NCC(C)Oc1cccc(OC)c1 (stereo unspecified) the screen gave 72.63%.
With Cc1c(Cl)cccc1C(=O)N(C)[C@H](C)C(N)=O the screen gave 8.419%.
With CCCN1CCCN(C(=O)CCS(C)(=O)=O)CC1 the screen gave 25.22%.
With CC(C(=O)Nc1sccc1C(N)=O)N1CCCCC1 (stereo unspecified) the screen gave -5.458%.
With N#Cc1ccc(CCC(=O)NCc2cccnc2)cc1 the screen gave -7.419%.
With CCC(C)(CC)NC(=O)NC1CC1 the screen gave 7.975%.
With CCN1CCC(CNC(=O)Nc2ccc(OC)nc2)C1 (stereo unspecified) the screen gave -22.49%.
With CN1CC(C(=O)N2CCC(c3ncc[nH]3)CC2)NC1=O (stereo unspecified) the screen gave 9.058%.
With Cc1cc(C(=O)N(C)C[C@H](O)CO)cc(Cl)c1Br the screen gave 53.47%.
With CC(N)c1nc(-c2ccc3c(c2)OCO3)c[nH]1 (stereo unspecified) the screen gave -5.069%.
With NC1CCCN(S(=O)(=O)C=Cc2cccc(Cl)c2)C1 (stereo unspecified) the screen gave 70.48%.
With CN(C(=O)c1n[nH]c2ccccc12)[C@H]1COC[C@@H]1O the screen gave 4.96%.
With CCC(C)c1cc(C(=O)Nc2ncccc2O)on1 (stereo unspecified) the screen gave 104.6%.
With CN(Cc1cccnc1)C(=O)c1cc(Cl)c[nH]1 the screen gave 48.72%.
With CN(CCCc1ccccc1)CC(=O)NCCC#N the screen gave 12.82%.
With CC1c2ccsc2CCN1CCC(=O)N(C)C (stereo unspecified) the screen gave 18.86%.
With CC(C)(C)OC(=O)N1CC(O)CC(F)(F)C1 (stereo unspecified) the screen gave 4.556%.
With CCOc1cc(C(=O)OCCCn2cccn2)ccn1 the screen gave 3.146%.
With CC(=O)NC(C(=O)N(C)Cc1cccs1)C(C)C (stereo unspecified) the screen gave 9.553%.
With Cc1cc(F)ccc1CN1CCOC(CCN)C1 (stereo unspecified) the screen gave 17.51%.
With Clc1cnn(CCN2CCCC3(CCOCC3)C2)c1 the screen gave 9.287%.
With O=C(NCc1ccc2c(c1)OCO2)N1CCCCC1 the screen gave 72.65%.
With CC1(C)CN(c2ncccc2C#N)CCO1 the screen gave 2.277%.
With CCC(N)c1cccc(OC)c1OC (stereo unspecified) the screen gave -2.237%.
With Cc1ccccc1CSCC(N)=O the screen gave 17.14%.
With Cc1nnc(CCNC(=O)CN2CCC(N(C)C)C2)s1 (stereo unspecified) the screen gave 10.47%.
With CCc1ccc(CN2CC(N3CCOCC3)C2)o1 the screen gave 87.92%.
With CC(N)Cc1nc(-c2ccccc2)no1 (stereo unspecified) the screen gave 41.8%.
With Cc1cc(CN(C)C(=O)CSCCN2CCCC2)on1 the screen gave -19.81%.
With CCN(CC1CCCCO1)C(=O)c1cc(Cl)c[nH]c1=O (stereo unspecified) the screen gave -4.324%.
With c1cc2nnnn2nc1NCCN1CCCCCC1 the screen gave -13.91%.
With CC(=O)NCCCNC(=O)c1cc(F)cc(Br)c1 the screen gave -3.198%.
With NC(=O)COc1ccccc1OCC(N)=O the screen gave -3.755%.
With CN1CCC(CCO)CC1 the screen gave 7.367%.
With CC(C)(C)C(=O)N1CCCN(C2CCOC2=O)CC1 (stereo unspecified) the screen gave -8.878%.
With CSc1cccc(CN(C)C(=O)CNC2CC2)c1 the screen gave 47.63%.
With Cc1ccccc1C(=O)NCCN1CCN(C)CC1 the screen gave -0.4615%.
With COCC(=O)N1CCCn2ccnc2C1C1CCCC1 (stereo unspecified) the screen gave -0.9024%.
With COCCC(=O)N1CCC(Nc2ncccc2Br)CC1 the screen gave 56.79%.
With COc1ccc(C(=O)CCN(C)C)cc1OC the screen gave 19.77%.

Measurements from “University of Dundee, Small-Polar-MMV Screening Library” (2021), ChEMBL document CHEMBL3988442.